Compound potency records, mixed from different reports. Data source: NIAID ChemDB in PubChem.

Common to all: whole-cell or culture tests

ECn is the concentration giving n% inhibition of infection, replication or growth. a–b is a range or a potency band. Zone: diameter of growth inhibition. An empty or dashed field is not shown. A number after MIC or MFC names an inhibition level or a share of isolates. Lines come from different laboratories, so protocols vary. Percent inhibition refers to the dose given; in toxicity tests it is the harm to the cells.

smiles | strain or isolate | agent | endpoint | read by | setting | tested at | value
CCCCCCn1cc[n+](COCCCCCCOC[n+]2ccn(CCCCCC)c2)c1 | ATCC 6258 | Candida krusei | MIC100 | agar diffusion |  |  | 2406 µM
O=C1S/C(=C\c2ccoc2)C(=O)N1CC(O)(Cn1nccn1)c1ccc(F)cc1F | Fluconazole-resistant 103 | Candida colliculosa | MIC80 |  |  |  | 74 µg/mL
CC1C(=O)N(CCCCc2ccccc2)C(=O)C1C | CCC 134-2000 | Candida lusitaniae | MIC | broth dilution / turbidity |  |  | 125 µg/mL
N=c1oc2ccccc2c2csc(N)c12 | ATCC 200950 | Candida lusitaniae | MIC | broth dilution |  |  | 4 µg/mL
COc1ccc(C2c3ccc4ccccc4c3Oc3nc(-c4cc5ccccc5oc4=O)[nH]c(=O)c32)cc1OC |  | Candida rugosa | zone | agar diffusion / agar |  | 150 µg/mL | 22 mm
O=C(O)CN1C(=O)CSC1c1ccccn1 |  | Candida parapsilosis | EC50 | broth dilution |  |  | 78.61 µM
CCCCCCCCCCCCCCCC(=O)NC(CCCCN)C(=O)NC(CCCCN)C(N)=O | 4888 | Candida guilliermondii | MIC | broth dilution |  |  | 8 µg/mL
O=C(CCn1ccnc1)c1ccc(Cl)cc1 | RTCC 1377 | Candida guilliermondii | MIC | broth dilution |  |  | >64 µg/mL
CC(C(=O)O)N1C(=O)CCSC1c1ccccc1 |  | Candida parapsilosis | EC50 | broth dilution |  |  | 52.89 µM
CC1CC(=O)N(c2ccc(F)cc2F)C1=O | CCC 134-2000 | Candida lusitaniae | MIC | broth dilution / turbidity |  |  | 250 µg/mL
CCCCCCCCCn1cc[n+](COCCCCCCOC[n+]2ccn(CCCCCCCCC)c2)c1 | ATCC 6258 | Candida krusei | MIC100 | agar diffusion |  |  | 4 µM
CC(=O)OC[C@H]1O[C@@H](O[C@@H]2[C@@H](N=[N+]=[N-])[C@H](O)[C@H](O)[C@H]3OC(C)(C)O[C@H]32)[C@H](OC(C)=O)[C@@H](OC(C)=O)[C@H]1OC(C)=O | C 131 | Candida tropicalis | inhibition | broth dilution / turbidity |  | 7.8 µg/mL | 0%
CCCCCOc1ccc(-c2cc(-c3ccc(C(=O)N[C@H]4C[C@@H](O)[C@@H](O)NC(=O)[C@@H]5[C@@H](O)[C@@H](C)CN5C(=O)[C@H]([C@H](O)CC(N)=O)NC(=O)[C@H]([C@H](O)[C@@H](O)c5ccc(O)c(OS(=O)(=O)O)c5)NC(=O)[C@@H]5C[C@@H](O)CN5C(=O)[C@H]([C@@H](C)O)NC4=O)cc3)no2)cc1 |  | Candida kefyr | MIC50 |  |  |  | 0.015–0.5 µg/mL
O=C(O)CN1C(=O)CSC1c1c(Cl)cccc1Cl |  | Candida parapsilosis | EC50 | broth dilution |  |  | 75.33 µM
OB1OC(N2CCN(C3OB(O)c4ccccc43)CC2)c2ccccc21 |  | Candida tenuis | MIC | turbidity |  |  | <0.9 µg/mL
OC(CCn1ccnc1)c1cccc(C(O)c2ccc(Br)cc2)c1 | RTCC 1074 | Candida kefyr | MIC | broth dilution |  |  | 8 µg/mL
OB(O)c1ccccc1 |  | Candida tenuis | MFC | turbidity |  |  | 500 µg/mL
OC(CCn1ccnc1)c1ccc(Br)cc1 | RTCC1248 | Candida guilliermondii | MIC | broth dilution |  |  | >64 µg/mL
Cc1ccccc1N1C(=O)CC(C)C1=O | CCC 134-2000 | Candida lusitaniae | MIC | broth dilution / turbidity |  |  | 125 µg/mL
CC[C@@H]([C@H](C)O)n1ncn(-c2ccc(N3CCN(c4ccc(OC[C@@H]5CO[C@@](Cn6cncn6)(c6ccc(F)cc6F)C5)cc4)CC3)cc2)c1=O | 40 isolates | Candida glabrata | EC90 | broth dilution | pH 7 |  | 0.5 µg/mL
C[C@@H](N1CCN(Cc2cn(Cc3ccc(F)cc3F)c3c(F)cccc23)CC1)[C@](O)(Cn1cncn1)c1ccc(F)cc1F | ATCC MYA-1003 | Candida albicans | MIC80 | resazurin |  |  | 8 µg/mL
COc1ccccc1C1SCCC(=O)N1C(Cc1ccccc1)C(=O)O |  | Candida parapsilosis | EC50 | broth dilution |  |  | 78.12 µM
C[C@H]1[C@H](O)[C@@H](C)/C=C/C=C/C=C/C=C/C=C/C=C/C=C/[C@H](O[C@@H]2O[C@H](C)[C@@H](O)[C@H](N)[C@@H]2O)C[C@@H]2O[C@](O)(C[C@@H](O)C[C@@H](O)CC[C@H](O)[C@@H](O)C[C@@H](O)CC(=O)O[C@H]1C)C[C@H](O)[C@H]2C(=O)O |  | Candida guilliermondii | MFC | broth dilution |  |  | 12.5 µg/mL
O=c1c2cc(O)ccc2oc2cccc(O)c12 |  | Candida spp. | MIC100 | broth dilution |  |  | >64 µg/mL
Cc1ccc(/C=N/Nc2ccnc3cc(Cl)ccc23)cc1 |  | Candida famata | MIC |  |  |  | 40 µg/mL
CCCCn1cc[n+](COCCCCCCOC[n+]2ccn(CCCC)c2)c1 | 6258 | Candida krusei | MIC100 | agar diffusion |  |  | 669 µM
CCC(C)CC(C)CCCCCCCCC(=O)N[C@H]1C[C@@H](O)[C@H](NCCN)NC(=O)[C@@H]2[C@@H](O)CCN2C(=O)[C@H]([C@H](O)CCN)NC(=O)[C@H]([C@H](O)[C@@H](O)c2ccc(O)cc2)NC(=O)[C@@H]2C[C@@H](O)CN2C(=O)[C@H]([C@@H](C)O)NC1=O | 40 isolates | Candida glabrata | EC90 | broth dilution | pH 5 |  | 0.5 µg/mL
CC1CC(=O)N(c2ccccc2)C1=O | CCC 134-2000 | Candida lusitaniae | MIC | broth dilution / turbidity |  |  | 125 µg/mL
C[C@H]1[C@H](O)[C@@H](C)/C=C/C=C/C=C/C=C/C=C/C=C/C=C/[C@H](O[C@@H]2O[C@H](C)[C@@H](O)[C@H](N)[C@@H]2O)C[C@@H]2O[C@](O)(C[C@@H](O)C[C@@H](O)CC[C@H](O)[C@@H](O)C[C@@H](O)CC(=O)O[C@H]1C)C[C@H](O)[C@H]2C(=O)O |  | Candida spp. | MIC100 | broth dilution |  |  | 2.68 µg/mL
C[C@@H]1CC(=O)N(c2ccc(Cl)cc2)C1=O | CCC 134-2000 | Candida lusitaniae | MIC | broth dilution / turbidity |  |  | 62.5 µg/mL
CCCCCCCCCCCCn1cc[n+](COCCCCOC[n+]2ccn(CCCCCCCCCCCC)c2)c1 | ATCC 6258 | Candida krusei | MIC100 | agar diffusion |  |  | 8 µM
CC(C)N=C(N)c1ccc2nc(-c3ccc4c(c3)Cc3cc(-c5nc6ccc(C(N)=NC(C)C)cc6[nH]5)ccc3-4)[nH]c2c1 | Isolate 1866 | Candida albicans | MFC |  |  |  | 1.56 µg/mL
C[C@@H](N1CCN(Cc2cn(Cc3ccc(F)cc3F)c3cc(Cl)ccc23)CC1)[C@](O)(Cn1cncn1)c1ccc(F)cc1F | ATCC 36082 | Candida albicans | MIC80 | resazurin |  |  | 0.125 µg/mL
Cc1nc2c(s1)C(=O)C(Nc1cccc(F)c1)=C(Cl)C2=O | KCCM 50662 | Candida utilis | MIC | broth dilution |  |  | 6.3 µg/mL
COc1c(O)ccc2c(=O)c3c(O)cc4c(c3oc12)C(C)(C)C(C)O4 |  | Candida spp. | MIC100 | broth dilution |  |  | >64 µg/mL
OC(CCn1ccnc1)c1cccc(C(O)c2ccc(Cl)cc2)c1 | RTCC1248 | Candida guilliermondii | MIC | broth dilution |  |  | >64 µg/mL
CCCCCOc1ccc(-c2ccc(-c3ccc(C(=O)N[C@H]4C[C@@H](O)[C@@H](O)NC(=O)[C@@H]5[C@@H](O)[C@@H](C)CN5C(=O)[C@H]([C@H](C)O)NC(=O)[C@H]([C@H](O)[C@@H](O)c5ccc(O)cc5)NC(=O)[C@@H]5C[C@@H](O)CN5C(=O)[C@H]([C@H](C)O)NC4=O)cc3)cc2)cc1 |  | Candida lusitaniae | MIC50 |  |  |  | 0.015–1 µg/mL
CCC(C)c1ccc(Cn2cc(CN3CCN([C@H](C)[C@](O)(Cn4cncn4)c4ccc(F)cc4F)CC3)c3ccccc32)cc1 | ATCC 36082 | Candida albicans | MIC80 | resazurin |  |  | 8 µg/mL
CCCCCCCCCCCCCCCCn1cc[n+](COCCCCOC[n+]2ccn(CCCCCCCCCCCCCCCC)c2)c1 | ATCC 6258 | Candida krusei | MIC100 | agar diffusion |  |  | 6 µM
Cc1nc2c(s1)C(=O)C(Nc1ccccc1)=C(Cl)C2=O | KCCM 50662 | Candida utilis | MIC | broth dilution |  |  | 6.3 µg/mL
CC(O)Cn1cc(CN2CCN([C@H](C)[C@](O)(Cn3cncn3)c3ccc(F)cc3F)CC2)c2cccc(Cl)c21 | ATCC 64548 | Candida albicans | MIC80 | resazurin |  |  | 1 µg/mL
COc1cc(C2c3ccc4ccccc4c3Oc3nc(-c4cc5ccccc5oc4=O)[nH]c(=O)c32)ccc1O |  | Candida rugosa | zone | agar diffusion / agar |  | 100 µg/mL | 12 mm
Clc1ccc(COC(Cn2ccnc2)c2ccc(Cl)cc2Cl)c(Cl)c1 | 40 isolates | Candida glabrata | EC90 | broth dilution | pH 4 |  | 16 µg/mL
O=C(O)CN1C(=O)CSC1c1ccc(Cl)cc1 |  | Candida parapsilosis | EC50 | broth dilution |  |  | 77.51 µM
O=C(CCn1ccnc1)c1ccc2ccccc2c1 | RTCC 1074 | Candida kefyr | MIC | broth dilution |  |  | 32 µg/mL
C[C@H]1[C@H](O)[C@@H](C)/C=C/C=C/C=C/C=C/C=C/C=C/C=C/[C@H](O[C@@H]2O[C@H](C)[C@@H](O)[C@H](N)[C@@H]2O)C[C@@H]2O[C@](O)(C[C@@H](O)C[C@@H](O)CC[C@H](O)[C@@H](O)C[C@@H](O)CC(=O)O[C@H]1C)C[C@H](O)[C@H]2C(=O)O | CCC 134-2000 | Candida lusitaniae | MIC | broth dilution / turbidity |  |  | 0.98 µg/mL
O=c1[nH]c(-c2cc3ccccc3oc2=O)nc2c1C(c1ccc(O)cc1)c1ccc3ccccc3c1O2 |  | Candida rugosa | zone | agar diffusion / agar |  | 150 µg/mL | 15 mm
CCC(C)n1ncn(-c2ccc(N3CCN(c4ccc(OC[C@H]5CO[C@](Cn6cncn6)(c6ccc(Cl)cc6Cl)O5)cc4)CC3)cc2)c1=O | 40 isolates | Candida glabrata | EC90 | broth dilution | pH 4 |  | >16 µg/mL
CC(C)(O)c1cn(-c2ccc([N+](=O)[O-])cc2)nn1 | URM 4608 | Candida parapsilosis | inhibition | broth dilution |  | 2048 µg/mL | 0%
C[C@@H](N1CCN(Cc2cn(-c3ccc(F)cc3)c3ccccc23)CC1)[C@](O)(Cn1cncn1)c1ccc(F)cc1F | ATCC 90028 | Candida albicans | MIC80 | resazurin |  |  | 0.125 µg/mL
CCCCCOc1ccc(-c2cc(-c3ccc(C(=O)N[C@H]4C[C@@H](O)[C@@H](O)NC(=O)[C@@H]5[C@@H](O)[C@@H](C)CN5C(=O)[C@H]([C@H](O)CC(N)=O)NC(=O)[C@H]([C@H](O)[C@@H](O)c5ccc(O)c(OS(=O)(=O)O)c5)NC(=O)[C@@H]5C[C@@H](O)CN5C(=O)[C@H]([C@@H](C)O)NC4=O)cc3)no2)cc1 | Fluconazole-resistant | Candida spp. | MIC50 | broth dilution |  |  | 0.016 µg/mL
O=c1[nH]c(-c2cc3ccccc3oc2=O)nc2c1C(c1ccc(Cl)cc1)c1ccc3ccccc3c1O2 |  | Candida rugosa | zone | agar diffusion / agar |  | 150 µg/mL | 14 mm
Cc1nc2c(s1)C(=O)C(Nc1ccc(C)c(C)c1)=C(Cl)C2=O | KCCM 50662 | Candida utilis | MIC | broth dilution |  |  | 3.2 µg/mL
CC(C(=O)O)N1C(=O)CSC1c1ccccc1 |  | Candida parapsilosis | EC50 | broth dilution |  |  | 78.12 µM
Cc1ccc(-n2cc(C(C)(C)O)nn2)cc1C | URM 3716 | Candida albicans | inhibition | broth dilution |  | 2048 µg/mL | 0%
CCCCCCCn1cc[n+](COCCOC[n+]2ccn(CCCCCCC)c2)c1 | ATCC 6258 | Candida krusei | MIC100 | agar diffusion |  |  | 20 µM
C=CCc1ccc(O)c(OC)c1 | 2804 | Candida tropicalis | MIC90 | turbidity |  |  | 475 µg/mL
C=CCc1ccc(Cn2cc(CN3CCN([C@H](C)[C@](O)(Cn4cncn4)c4ccc(F)cc4F)CC3)c3cccc(F)c32)cc1 | ATCC MYA-1003 | Candida albicans | MIC80 | resazurin |  |  | >128 µg/mL
CC1CC2=C(O1)c1ccccc1C(=O)C2=O | Clinical isolate | Candida tropicalis | MIC | broth dilution |  |  | 20.15 µg/mL
C[C@@H](N1CCN(Cc2cn(Cc3ccc(F)cc3F)c3cc(N=[N+]=[N-])ccc23)CC1)[C@](O)(Cn1cncn1)c1ccc(F)cc1F | ATCC 64548 | Candida albicans | MIC80 | resazurin |  |  | 0.125 µg/mL
CC(C)(O)c1cn(-c2cccc3ccccc23)nn1 | URM 934 | Candida krusei | inhibition | broth dilution |  | 2048 µg/mL | 0%
OB1OCc2cc(F)ccc21 |  | Candida tenuis | MIC | turbidity |  |  | <0.9 µg/mL
C[C@@H](N1CCN(Cc2cn(Cc3ccc(Cl)cc3Cl)c3cc(Cl)ccc23)CC1)[C@](O)(Cn1cncn1)c1ccc(F)cc1F | ATCC 64548 | Candida albicans | MIC80 | resazurin |  |  | 0.125 µg/mL
C[C@H]1[C@H](O)[C@@H](C)/C=C/C=C/C=C/C=C/C=C/C=C/C=C/[C@H](O[C@@H]2O[C@H](C)[C@@H](O)[C@H](N)[C@@H]2O)C[C@@H]2O[C@](O)(C[C@@H](O)C[C@@H](O)CC[C@H](O)[C@@H](O)C[C@@H](O)CC(=O)O[C@H]1C)C[C@H](O)[C@H]2C(=O)O | ATCC 96139 | Candida orthopsilosis | MIC | broth dilution |  |  | 0.125 µg/mL
CC(=O)c1ccc(B(O)O)cc1 |  | Candida tenuis | MIC | turbidity |  |  | 7.8 µg/mL